The target in one assay is YopH (Yersinia enterocolitica, UniProt P15273, C235R/P163M). As to the kind of experiment: Kinetic characterization of YopH inactivation by BBP-based probes (pNPP substrate). Conditions: saturation kinetics, 25° C., pH 6.
In assay [1] the test system is YopH site-directed mutants (C403S, D356A, D356N, R409A, R409K). The assay is described as follows: Covalent labeling of wild-type and mutant YopH. To be noted: wild-type YopH pretreated, alkylates Cys403.

As for α-bromobenzylphosphonate, the “inactivation rate constant ki” value at YopH was 0.11 min⁻¹.
For the substance iodoacetate, in assay [1], the “effect of pretreatment of YopH on incorporation of I” value was “blocked the incorporation of I into YopH”.

Source of the values: patent US7736911B2, “Activity-based probes for protein tyrosine phosphatases” (Albert Einstein College of Medicine of Yeshiva University, priority 2004, dated 2010).
